The source of these data is publication PMC12164381.

The target of the experiment is Efficient evolution design from the S309 starting point (Table 4, design row 3, the 4th table, row 6). As to the kind of experiment: SPR. (SPR reads the build-up and loss of mass on a sensor chip optically.)

As a reminder, the pKD is the negative decadic logarithm of the KD, by convention in mol/L. Read a high pKD as a low KD. With “SARS-CoV-2 Spike RBD, XBB.1.5 strain (from UniProt P0DTC2) (domain or fragment)”, the pKD is 8.46 -log10(KD).
